Results of unrelated studies side by side (data: NIAID ChemDB).

Common to all: whole-cell or culture tests; organism: Varicella zoster virus; read by: plaque count; endpoint: EC50

ECn is the concentration giving n% inhibition of infection, replication or growth. a–b is a range or a potency band. An empty or dashed field is not shown. Lines come from different laboratories, so protocols vary.

structure	strain or isolate	cell line	result
O=c1[nH]c(=O)n([C@H]2C[C@H](O)[C@@H](CO)O2)cc1/C=C/Cl	YS (TK+)	HEL	0.03 µM
Nc1nc2c(ncn2C[C@]2(CO)C[C@H]2CO)c(=O)[nH]1	YS/R (TK-)	HEL	16 µg/mL
O=[N+]([O-])c1cc([C@H]2C[C@H](O)[C@@H](CO)O2)c(F)cc1F	(TK-)07/1	HEL	72 µM
O=c1[nH]c(=S)n([C@@H]2O[C@H](CO)[C@@H](O)[C@@H]2O)cc1CCO	HOSEN (TK+)	MRC-5	>244.8 µM
COc1ccc(-c2cc3ccccn3c2)cc1OC	G-31	MRC-5	>40 µM
O=c1[nH]c(=O)n([C@H]2C[C@H](O)[C@@H](CO)O2)cc1/C=C/Br	OKA (TK+)	HEL	0.0028 µM
CN1c2ccccc2C(C)(C)C12C=Cc1cc([N+](=O)[O-])ccc1O2	YS (TK+)	HEL	5.7 µM
CC(O)c1cn([C@@H]2O[C@H](CO)[C@@H](O)[C@@H]2O)c(=S)[nH]c1=O	Kanno-Kohmura (TK-)	MRC-5	>263.5 µM
COc1ccc2c(c1)OC1(C=C2)N(C)c2ccc(Cl)cc2C1(C)C	OKA (TK+)	HEL	3.7 µM
O=c1[nH]c(=O)n([C@@H]2O[C@H](CO)[C@@H](O)[C@@H]2O)cc1/C=C/Cl	Kawaguchi (BrdU-resistant)	-	>0.1 µg/mL
Cc1c(Br)cc(Br)c2ncc(CSC(C)c3cccs3)n12	07/1 (TK-)	HEL	>2 µg/mL
O=c1nc2oc(CCCOc3ccccc3)cc2cn1[C@H]1C[C@H](O)[C@@H](CO)O1	(TK+)/OKA	HEL	77 µM
Cc1c(Br)cc(Br)c2ncc(CSCc3ccccc3Cl)n12	YS (TK+)	HEL	>5 µg/mL
Nc1ncc2ncn(C[C@H]3CCC[C@H]3CO)c2n1	YS (TK+)	HEL	>20 µg/mL
O=c1nc2oc(CCCC3OCCO3)cc2cn1[C@H]1C[C@H](O)[C@@H](CO)O1	YS	HEL	>200 µM
CC1(C)[C@H](CCO)C[C@@H]1n1nnc2c(=O)[nH]cnc21	YS/R (TK-)	-	>50 µg/mL
O=c1nc2oc(CCCC3OCCCO3)cc2cn1[C@H]1C[C@H](O)[C@@H](CO)O1	07/1 (TK-)	HEL	>200 µM
CCCCCCc1ccc(-c2cc3cn(C4CC[C@@H](CO)O4)c(=O)nc3o2)cc1	OKA (TK+)	HEL	4 µM
OC[C@H]1O[C@@H](c2cc(F)c(F)cc2F)C[C@@H]1O	(TK-)/YS/R	HEL	>200 µM
Nc1nc(N)c2ncn([C@H]3CCC[C@H]3CO)c2n1	YS/R (TK-)	HEL	37 µg/mL
CCCCCCCCc1cc2cn([C@@H]3O[C@H](CO)[C@@H](O)[C@H]3O)c(=O)nc2o1	-	HEL	23 µM
O=c1[nH]c(=S)n([C@@H]2O[C@H](CO)[C@@H](O)[C@@H]2O)cc1/C=C/Br	CAQU (TK+)	MRC-5	3.8 µM
CN1c2ccccc2C(C)(C)C12C=Nc1c(ccc3ccccc13)O2	07/1 (TK-)	HEL	5.1 µM
Nc1ncc2ncn([C@H]3CCC[C@H]3CO)c2n1	YS/R (TK-)	HEL	>20 µg/mL
CCCc1ccc(-c2cc3cn(C4CC[C@@H](CO)O4)c(=O)nc3o2)cc1	OKA (TK+)	HEL	>50 µM
Cc1ccc(OCCCc2cc3cn([C@H]4C[C@H](O)[C@@H](CO)O4)c(=O)nc3o2)cc1	(TK-)07/1	HEL	>50 µM
CC(C)OC(=O)c1c(C(C)C)cc2ccccn12	G-31	MRC-5	>50 µM
CC1(C)[C@@H](CCO)C[C@H]1n1nnc2c(N)nc(N)nc21	TK+/YS	HEL	>20 µg/mL
O=c1[nH]c(=O)n([C@@H]2O[C@H](CO)[C@@H](O)[C@@H]2O)cc1/C=C/Br	YS-W3 G19 H3	HEL	0.0006 µg/mL
NC1=NS(=O)(=O)N(Cc2ccccc2)c2nc(Cc3ccccc3)[nH]c21	OKA	HEL	12 µg/mL
CN1c2ccc([N+](=O)[O-])cc2C(C)(C)C12C=Cc1cc([N+](=O)[O-])ccc1O2	YS (TK+)	HEL	1.5 µM
O=c1[nH]c(=O)n([C@H]2C[C@H](O)[C@@H](CO)O2)cc1-c1ccc(Br)s1	YS/R (TK-)	HEL	>103 µM
CC1(C)[C@H](CCO)C[C@@H]1n1cnc2c(N)ncnc21	YS/R (TK-)	-	20 µg/mL
Nc1nc(=S)n([C@@H]2O[C@H](CO)[C@@H](O)[C@@H]2O)cc1/C=C/Br	HOSEN (TK+)	MRC-5	65.4 µM
Cc1c(Br)cc(Br)c2ncc(CSCc3ccc(Cl)c(Cl)c3)n12	YS (TK+)	HEL	4 µg/mL
COc1ccc2c(c1)C=CC1(O2)N(C)c2ccccc2C1(C)C	OKA (TK+)	HEL	>2.1 µM
OC[C@H]1O[C@@H](c2cc(C(O)C(I)I)c(F)cc2F)C[C@@H]1O	OKA (TK+)	HEL	130 µg/mL
CC1(C)[C@@H](CCO)C[C@H]1n1cnc2c(=O)[nH]c(N)nc21	(TK-)07/1	HEL	>50 µg/mL
Cn1cc(C(=O)NCc2ccc(Cl)cc2)c(=O)c2cc(CN3CCOCC3)ccc21	DE varicella isolate	HFF	0.3 µM
O=C(O)CP(=O)(O)O	OKA (TK+)	HEL	51.4 µM
CC1(C)[C@@H](CCO)C[C@H]1n1nnc2c(Cl)nc(N)nc21	TK+/YS	HEL	>20 µg/mL
CC1(C)[C@H](CCO)C[C@@H]1n1nnc2c(N)ncnc21	YS/R (TK-)	-	3.5 µg/mL
CCCCCCCOCCc1cc2cn([C@H]3C[C@H](O)[C@@H](CO)O3)c(=O)nc2o1	YS/R (TK-)	HEL	>50 µM
C=Cc1cn([C@@H]2O[C@H](CO)[C@@H](O)[C@@H]2O)c(=S)[nH]c1=O	HOSEN (TK+)	MRC-5	>266.3 µM
O=c1[nH]c(=O)n([C@@H]2O[C@H](CO)[C@@H](O)[C@@H]2O)cc1/C=C/Br	YS (TK+)	HEL	0.000024 µM
O=c1nc2oc(CCCSc3ccccc3)cc2cn1[C@H]1C[C@H](O)[C@@H](CO)O1	TK+/YS	HEL	0.67 µM
O=c1[nH]c(=O)n([C@H]2C[C@H](O)[C@@H](CO)O2)cc1/C=C/Br	Kanno-Kohmura (TK-)	HEF	≥56 µg/mL
Cc1cccn2c(CSCc3ccccc3)cnc12	OKA (TK+)	HEL	0.9 µg/mL
Cc1cc([C@@H]2C[C@H](O)[C@@H](CO)O2)c(F)cc1Cl	TK+/YS	HEL	>200 µM
Cc1ccccc1CSCc1cnc2c(Br)cc(Br)c(C)n12	YS/R (TK-)	HEL	3.2 µg/mL
O=c1[nH]c(=O)n([C@H]2C[C@H](O)[C@@H](CO)O2)cc1/C=C\Cl	YS	HEL	0.1 µg/mL
FC(F)(F)c1cc(Cl)c2cc(-c3ccccc3)cn2c1	G-31	MRC-5	20–50 µM
Nc1nc(=O)n([C@H]2C[C@H](O)[C@@H](CO)O2)cc1/C=C\Cl	7/01 (TK-)	HEL	>40 µg/mL
CCCCCOCCCCc1cc2cn([C@H]3C[C@H](O)[C@@H](CO)O3)c(=O)nc2o1	YS/R (TK-)	HEL	>50 µM
Cc1cn([C@@H]2O[C@H](CO)[C@H]2CO)c(=O)[nH]c1=O	V8907	HFF	0.01 µg/mL
Nc1ncnc2c1ncn2[C@@H]1C[C@H](CO)[C@@H](O)[C@@H]1O	OKA-H12	HEL	1.2 µg/mL
CCc1cn([C@@H]2O[C@H](CO)[C@@H](O)[C@@H]2O)c(=S)nc1N	HOSEN (TK+)	MRC-5	>264.9 µM
O=c1c2ncn(COC(CO)CO)c2nc2[nH]c(-c3ccccc3)cn12	07/1 (TK-)	HEL	3 µg/mL
c1coc(-c2cc3ccccn3c2)c1	G-31	MRC-5	8.6 µM
CCc1cn([C@@H]2O[C@H](CO)[C@@H](O)[C@@H]2O)c(=S)[nH]c1=O	HOSEN (TK+)	MRC-5	>264.9 µM
Cc1c(Br)cc(Br)c2ncc(CSCCCc3ccccc3)n12	YS/R (TK-)	HEL	3.4 µg/mL
Nc1nc(=S)n([C@@H]2O[C@H](CO)[C@@H](O)[C@@H]2O)cc1CO	Kanno-Kohmura (TK-)	MRC-5	>253.5 µM
O=C(NCc1ccc(Cl)cc1)c1c[nH]c2c(F)cccc2c1=O	NAG	-	0.6 µM
Nc1nc2c(ncn2CCC(CO)CO)c(=O)[nH]1	YS (TK+)	HEL	0.6 µg/mL
NC1=NS(=O)(=O)N(Cc2ccccc2)c2nc(-c3ccc(Cl)cc3)[nH]c21	07/1 (TK-)	HEL	>5 µg/mL
OC[C@H]1O[C@@H](c2cc(C(F)(F)F)c(F)cc2F)C[C@@H]1O	(TK-)07/1	HEL	>200 µM
Nc1nc(=S)n([C@@H]2O[C@H](CO)[C@@H](O)[C@@H]2O)cc1/C=C/c1ccccc1	HOSEN (TK+)	MRC-5	222.5 µM
O=c1[nH]c(=O)n([C@H]2C[C@H](O)[C@@H](CO)O2)cc1/C=C/I	HIRAI	HEF	0.0017 µg/mL
CC1(C)[C@@H](CCO)C[C@H]1n1cnc2c(N)nc(N)nc21	TK+/YS	HEL	>50 µg/mL
CCCCc1ccc(-c2cc3cn(C4CC[C@@H](CO)O4)c(=O)nc3o2)cc1	OKA (TK+)	HEL	3.9 µM
OC[C@H]1O[C@@H](c2cc(C(O)CBr)c(F)cc2F)C[C@@H]1O	07/1 (TK-)	HEL	>20 µg/mL
OC[C@H]1O[C@H](c2cc(F)c(F)cc2F)C[C@@H]1O	(TK-)/YS/R	HEL	>200 µM
Nc1nc2c(ncn2[C@@H]2C[C@H](CO)[C@H]2CO)c(=O)[nH]1	-	-	0.1–1 µM
O=C(O)P(=O)(O)O	YS/R (TK-)	HEL	28.3 µM
O=c1[nH]c(=O)n([C@H]2C[C@H](O)[C@@H](CO)O2)cc1I	HIRAI	HEF	0.2 µg/mL
C=Cc1cn([C@@H]2O[C@H](CO)[C@@H](O)[C@@H]2O)c(=O)[nH]c1=O	Kawaguchi acyclovir-resistant mutant A7	-	0.0625 µg/mL
Nc1ccn(C[C@@H](CO)OCP(=O)(O)O)c(=O)n1	YS/R (TK-)	HEL	0.08 µM